# Test system: anthrax
# Assay: Resistance to anthrax infection in laboratory animals (Example 16)
# Settings: 3 micrograms per kilogram i.p., from 10 days prior and for two months
substance,measurement,value
3-O-metyl-β-D-glucopyranosyl-(1→3)-β-D-xylopyranosyl-(1→4)-[β-D-xylopyranosyl-(1→2)]-β-D-quinovopyranosyl-(1→2)-4-O-sodium sulfate-β-D-xylopyranosyl-3-O-holost-7(8)-en-3β-ol-16β-O-acetate,more animals alive at experiment end vs untreated group,60%

# — US7163702B1 (priority 2004, dated 2007)
